Results of unrelated studies side by side (data: NIAID ChemDB).

Common to all: tests on isolated targets

Conditions beyond the fields shown may differ between rows. ICn is the concentration giving n% inhibition. Percent inhibition refers to the dose given; in toxicity tests it is the harm to the cells. An empty or dashed field is not shown. a–b is a range or a potency band.

smiles | target | agent | endpoint | method | changes | dose | value
COC(=O)Nc1cn2ccn(Cc3cccc(Cl)c3)c(=O)c2c(O)c1=O | Integrase | HIV-1 | IC50 | ELISA |  |  | <0.01 µM
CC(C)(CCCCCNC(=O)N1CCOCC1)CN(C[C@@H](O)[C@H](Cc1ccccc1)NC(=O)O[C@H]1CO[C@H]2OCC[C@H]21)S(=O)(=O)c1ccc2c(c1)OCO2 | Protease | HIV-1 | Ki | fluorescence |  |  | <0.001 µM
O[C@@H]1[C@@H](O)[C@@H](NCc2ccc(-c3ccncc3)cc2)[C@H]2O[C@H]2[C@H]1O | Amyloglucosidase | Aspergillus niger | inhibition |  |  | 100 µM | 0%
CC(=O)CNC(=O)c1cn2ccn(Cc3cccc(Cl)c3)c(=O)c2c(O)c1=O | Integrase | HIV-1 | IC50 | ELISA |  |  | 0.01–0.1 µM
CC(C)(CCCN)CN(C[C@@H](O)[C@H](Cc1ccccc1)NC(=O)O[C@H]1CO[C@H]2OCC[C@H]21)S(=O)(=O)c1cccc2c1OCO2 | Protease | HIV-1 | Ki | fluorescence |  |  | <0.001 µM
N[C@@H]1[C@H](O)[C@@H](O)[C@H](O)[C@@H]2O[C@H]12 | Beta-D-xylosidase | Aspergillus niger | inhibition |  |  | 100 µM | 0%
COc1cccc(-c2cncc(N3CCN(c4ccc(Cl)cc4)CC3)n2)c1 | UL97 kinase | Cytomegalovirus | IC50 |  |  |  | <10 µM
CC(=O)OCC(C)(C)C(=O)c1cn2ccn(Cc3cccc(Cl)c3)c(=O)c2c(O)c1=O | Integrase | HIV-1 | IC50 | ELISA |  |  | <0.01 µM
O=C(OC1OC2COC(=O)c3cc(Oc4c(C(=O)OC5C(O)OC6COC(=O)c7cc(O)c(O)c(O)c7-c7c(cc(O)c(O)c7O)C(=O)OC6C5OC(=O)c5cc(O)c(O)c(O)c5)cc(O)c(O)c4O)c(O)c(O)c3-c3c(cc(O)c(O)c3O)C(=O)OC2C(OC(=O)c2cc(O)c(O)c(O)c2)C1O)c1cc(O)c(O)c(O)c1 | DNA polymerase | Epstein-Barr virus | inhibition |  |  | 120 µg/mL | 81%
CC(C)(CCCNS(=O)(=O)c1ccc(F)cc1)CN(C[C@@H](O)[C@H](Cc1ccccc1)NC(=O)O[C@H]1CO[C@H]2OCC[C@H]21)S(=O)(=O)c1ccc2c(c1)OCO2 | Protease | HIV-1 | Ki | fluorescence |  |  | <0.001 µM
CC(=O)c1ccc(-c2cncc(N3CCC(c4ccccc4)CC3)n2)cc1 | UL97 kinase | Cytomegalovirus | inhibition |  |  | 1 µM | <50%
O=C(NCCF)c1cn2ccn(Cc3cccc(Cl)c3)c(=O)c2c(O)c1=O | Integrase | HIV-1 | IC50 | ELISA |  |  | <0.01 µM
O=C(/C=C/c1ccccc1Cl)Nc1nnc(NCCC(c2ccccc2)c2ccccc2)s1 | Polymerase | Human cytomegalovirus | IC50 |  |  |  | >25 µM
CC(C)(CCCCNC(=O)c1ccco1)CN(C[C@@H](O)[C@H](Cc1ccccc1)NC(=O)O[C@H]1CO[C@H]2OCC[C@H]21)S(=O)(=O)c1ccc2c(c1)OCO2 | Protease | HIV-1 | Ki | fluorescence |  |  | <0.001 µM
COc1ccc(N2CCN(c3cncc(-c4cccc(C)c4)n3)CC2)cc1OC | UL97 kinase | Cytomegalovirus | IC50 |  |  |  | <10 µM
O=C1O[C@H]2C(O)O[C@@H]3COC(=O)c4cc(O)c(O)c(O)c4-c4c(cc(c(O)c4O)Oc4c(cc(O)c(O)c4O)C(=O)O[C@@H]4[C@@H](OC(=O)c5cc(O)c(O)c(O)c5)[C@@H]5OC(=O)c6cc(O)c(O)c(O)c6-c6c(cc7c(c6O)OC6C(O7)C1=CC(=O)C6(O)O)C(=O)OC[C@H]5O[C@H]4O)C(=O)O[C@H]3[C@@H]2OC(=O)c1cc(O)c(O)c(O)c1 | DNA polymerase | Epstein-Barr virus | IC50 |  |  |  | 5.5 µg/mL
COc1cccc(N2CCN(c3cnccn3)C(c3cc4ccccc4o3)C2)c1 | UL97 kinase | Cytomegalovirus | IC50 |  |  |  | <10 µM
Cc1nn(Cc2cccc(Cl)c2)c(=O)c2c(O)c(=O)ccn12 | Integrase | HIV-1 | IC50 | ELISA |  |  | 0.01–0.1 µM
O=C(Nc1nnc(NCc2ccc(F)cc2)s1)c1c(Cl)cccc1Cl | Polymerase | Human cytomegalovirus | IC50 |  |  |  | <25 µM
COc1cccc(S(=O)(=O)N(C[C@@H](O)[C@H](Cc2ccccc2)NC(=O)O[C@H]2CO[C@H]3OCC[C@H]32)CC(C)(C)CCNC(=O)OC(C)C)c1 | Protease | HIV-1 | Ki | fluorescence |  |  | <0.001 µM
CC(C)c1cn(Cc2ccc(F)c(Cl)c2)c(=O)c2c(O)c(=O)ccn12 | Integrase | HIV-1 | IC50 | ELISA |  |  | <0.01 µM
CCCCCCCC/C=C/CCCCCCCC(=O)Nc1nnc(NCCNc2ccccc2)s1 | Polymerase | Human cytomegalovirus | IC50 |  |  |  | >25 µM
CC(=O)NCC(=O)NCCCC(C)(C)CN(C[C@@H](O)[C@H](Cc1ccccc1)NC(=O)O[C@H]1CO[C@H]2OCC[C@H]21)S(=O)(=O)c1ccc2c(c1)OCO2 | Protease | HIV-1 | Ki | fluorescence |  |  | <0.001 µM
N#Cc1ccccc1N1CCN(c2cncc(-c3ccc(Cl)cc3)n2)CC1 | UL97 kinase | Cytomegalovirus | inhibition |  |  | 1 µM | <50%
CSC(=O)NCCCC(C)(C)CN(C[C@@H](O)[C@H](Cc1ccccc1)NC(=O)O[C@H]1CO[C@H]2OCC[C@H]21)S(=O)(=O)c1ccc2c(c1)OCO2 | Protease | HIV-1 | Ki | fluorescence |  |  | <0.001 µM
COc1ccccc1C(=O)Nc1nnc(NCc2cccc3ccccc23)s1 | Polymerase | Human cytomegalovirus | IC50 |  |  |  | >25 µM
CC(=O)NCCC(C)(C)CN(C[C@@H](O)[C@H](Cc1ccccc1)NC(=O)O[C@H]1CO[C@H]2OCC[C@H]21)S(=O)(=O)c1ccc2c(c1)OCO2 | Protease | HIV-1 | Ki | fluorescence |  |  | <0.001 µM
O=C(Nc1nnc(NC2CCCc3ccccc32)s1)c1cc2ccccc2s1 | Polymerase | Human cytomegalovirus | IC50 |  |  |  | >25 µM
CC(C)(CCOC(=O)NCCO)CN(C[C@@H](O)[C@H](Cc1ccccc1)NC(=O)O[C@H]1CO[C@H]2OCC[C@H]21)S(=O)(=O)c1ccc2c(c1)OCO2 | Protease | HIV-1 | Ki | fluorescence |  |  | <0.001 µM
O=c1c(S(=O)c2ccccc2)cn2ccn(Cc3cccc(Cl)c3)c(=O)c2c1O | Integrase | HIV-1 | IC50 | ELISA |  |  | 0.01–0.1 µM
COC(=O)NCCC(C)(C)CN(C[C@@H](O)[C@H](Cc1ccccc1)NC(=O)O[C@H]1CO[C@H]2OCC[C@H]21)S(=O)(=O)c1ccc2c(c1)OCO2 | Protease | HIV-1 | Ki | fluorescence |  |  | <0.001 µM
O=c1c(-c2ccccn2)cn2ccn(Cc3ccc(F)cc3)c(=O)c2c1O | Integrase | HIV-1 | IC50 | ELISA |  |  | 0.01–0.1 µM
O[C@@H]1[C@@H](O)[C@@H](NCc2ccc(C(F)(F)F)cc2)[C@@H]2O[C@@H]2[C@H]1O | Amyloglucosidase | Aspergillus niger | inhibition |  |  | 100 µM | 38%
CC(C)(CCCCCNS(C)(=O)=O)CN(C[C@@H](O)[C@H](Cc1ccccc1)NC(=O)O[C@H]1CO[C@H]2OCC[C@H]21)S(=O)(=O)c1ccc2c(c1)OCO2 | Protease | HIV-1 | Ki | fluorescence |  |  | <0.001 µM
CC(C)c1cc(C(C)C)c(C(=O)Nc2nnc(NCc3ccc4c(c3)OCO4)s2)c(C(C)C)c1 | Polymerase | Human cytomegalovirus | IC50 |  |  |  | >25 µM
Nc1ccn([C@@H]2CS[C@H](COP(=O)(O)OP(=O)(O)OP(=O)(O)O)O2)c(=O)n1 | Reverse transcriptase | HIV | Ki | radiometric | RT-K65R K103N Q151M |  | 0.364 µM
CC(C)(CCCCNC(=O)C1CCC1)CN(C[C@@H](O)[C@H](Cc1ccccc1)NC(=O)O[C@H]1CO[C@H]2OCC[C@H]21)S(=O)(=O)c1ccc2c(c1)OCO2 | Protease | HIV-1 | Ki | fluorescence |  |  | <0.001 µM
Cc1ccc(-c2cncc(N3CCN(c4ccccc4F)CC3)n2)cc1 | UL97 kinase | Cytomegalovirus | IC50 |  |  |  | <100 µM
CC(C)(CCOC(=O)N1CCOCC1)CN(C[C@@H](O)[C@H](Cc1ccccc1)NC(=O)O[C@H]1CO[C@H]2OCC[C@H]21)S(=O)(=O)c1ccc2c(c1)OCO2 | Protease | HIV-1 | Ki | fluorescence |  |  | <0.001 µM
O[C@@H]1[C@@H](O)[C@@H](NCc2ccc(-c3ccccc3)cc2)[C@H]2O[C@H]2[C@H]1O | Amyloglucosidase | Aspergillus niger | inhibition |  |  | 100 µM | 16%
COc1ccc(N2CCN(c3cncc(-c4ccc(CN)cc4)n3)CC2)cc1OC | UL97 kinase | Cytomegalovirus | IC50 |  |  |  | <100 µM
CC(C)(CCCCNS(C)(=O)=O)CN(C[C@@H](O)[C@H](Cc1ccccc1)NC(=O)O[C@@H]1CO[C@@H]2OCC[C@@H]21)S(=O)(=O)c1ccc(N)cc1 | Protease | HIV-1 | Ki | fluorescence |  |  | <0.001 µM
c1ccc(N2CCN(c3cncc(-c4cccs4)n3)CC2)nc1 | UL97 kinase | Cytomegalovirus | inhibition |  |  | 10 µM | >15%
CON(C)C(=O)OCCCC(C)(C)CN(C[C@@H](O)[C@H](Cc1ccccc1)NC(=O)O[C@H]1CO[C@H]2OCC[C@H]21)S(=O)(=O)c1ccc2c(c1)OCO2 | Protease | HIV-1 | Ki | fluorescence |  |  | <0.001 µM
O=C(c1ccco1)N1CCN(c2cncc(-c3cccc(CO)c3)n2)CC1 | UL97 kinase | Cytomegalovirus | inhibition |  |  | 10 µM | >15%
COc1ccc(CNc2nnc(NC(=O)c3c(Cl)cccc3Cl)s2)cc1OC | Polymerase | Human cytomegalovirus | IC50 |  |  |  | >25 µM

For reference, 4 entries again:

smiles	target	agent	endpoint	method	changes	dose	value
COC(=O)NCCC(C)(C)CN(C[C@@H](O)[C@H](Cc1ccccc1)NC(=O)O[C@H]1CO[C@H]2OCC[C@H]21)S(=O)(=O)c1ccc2c(c1)OCO2	Protease	HIV-1	Ki	fluorescence			<0.001 µM
Cc1nn(Cc2cccc(Cl)c2)c(=O)c2c(O)c(=O)ccn12	Integrase	HIV-1	IC50	ELISA			0.01–0.1 µM
CC(C)(CCCCNC(=O)c1ccco1)CN(C[C@@H](O)[C@H](Cc1ccccc1)NC(=O)O[C@H]1CO[C@H]2OCC[C@H]21)S(=O)(=O)c1ccc2c(c1)OCO2	Protease	HIV-1	Ki	fluorescence			<0.001 µM
c1ccc(N2CCN(c3cncc(-c4cccs4)n3)CC2)nc1	UL97 kinase	Cytomegalovirus	inhibition			10 µM	>15%